Measured values from several laboratories, pooled; numbers as filed in NIAID ChemDB.

Shared fields: enzyme or target tests; organism: HIV-1; target: Reverse transcriptase; read by: nucleotide incorporation / radiometric; endpoint: IC50

Conditions beyond the fields shown may differ between rows. a–b is a range or a potency band. An empty or dashed field is not shown. ICn: concentration for n% inhibition.

SMILES	strain or isolate	mutations	result
CCN1c2ncc(CCOc3ccc(-c4cc(C(=O)O)ccc4C)cc3C)cc2C(=O)N(C)c2cccnc21	IIIB	RT-K103N Y181C	>0.1 µM
CC(C)OC(=O)CNC(=O)c1ccc(NC(=O)CSc2nnc(Br)n2-c2ccc(C3CC3)c3ccccc23)c(Cl)c1	-	RT-Y188L	<0.05 µM
CCc1ccc(-n2c(C)nnc2SCC(=O)Nc2ccc(S(N)(=O)=O)cc2C)c2ccccc12	-	RT-Y188L	>0.1 µM
O=C(CSc1nnc(Br)n1-c1ccc(C2CC2)c2ccccc12)Nc1ccc(C(=O)N[C@@H](Cc2ccc(O)cc2)C(=O)O)cc1Cl	-	-	<0.05 µM
CCN1c2ncc(CCOc3ccc(C(=O)N=c4ccccn4O)cc3C)cc2C(=O)N(C)c2cccnc21	IIIB	-	<0.05 µM
COC(=O)[C@H](CC(C)C)NC(=O)c1ccc(NC(=O)CSc2nnc(Br)n2-c2ccc(C3CC3)c3ccccc23)c(Cl)c1	-	RT-Y181C	<0.05 µM
CCOC(=O)CCNC(=O)c1ccc(NC(=O)CSc2nnc(Br)n2-c2ccc(C3CC3)c3ccccc23)c(Cl)c1	-	RT-Y181C	<0.05 µM
CCN1c2ncc(CCOc3ccc(NC(=O)CC4(C(=O)O)CCCC4)cc3C)cc2C(=O)N(C)c2cccnc21	IIIB	RT-K103N Y181C	>0.1 µM
O=C(CSc1nnc(Br)n1-c1c(Cl)cc(C2CCC2)c2ccccc12)Nc1ccc(C(=O)O)cc1Cl	-	RT-Y181C	<0.05 µM
CCN1c2ncc(CCOc3ccc(C(=O)O)c4c3CCCC4)cc2C(=O)N(C)c2ccc(C)nc21	-	RT-V106A	>1 µM
CCOC(=O)CN(C)C(=O)c1ccc(NC(=O)CSc2nnc(Br)n2-c2ccc(C3CC3)c3ccccc23)c(Cl)c1	-	RT-Y188L	>0.1 µM
COc1ccc2cccc(-n3c(Br)nnc3SCC(=O)Nc3ccc(C(=O)O)cc3Cl)c2c1	-	-	<0.05 µM
COC(=O)[C@@H](NC(=O)c1ccc(NC(=O)CSc2nnc(Br)n2-c2ccc(C3CC3)c3ccccc23)c(Cl)c1)C(C)C	-	-	<0.05 µM
O=C(O)CNC(=O)c1ccc(NC(=O)CSc2nnc(Br)n2-c2ccc(C3CC3)c3ccccc23)c(Cl)c1	-	RT-Y188L	0.05–0.1 µM
CCN1c2ncc(CCOc3ccc(CCC(=O)O)c4ccccc34)cc2C(=O)N(C)c2ccc(Cl)nc21	WT	-	<0.1 µM
CCc1ccc(-n2c(Br)nnc2SCC(=O)Nc2ccc(C(=O)O)cc2C)c2ccccc12	-	-	<0.05 µM
CCN1c2ncc(CCOc3ccc(CC(=O)O)c4ccccc34)cc2C(=O)N(C)c2ccc(Cl)nc21	-	RT-Y188L	>1 µM
CCc1ccc(-n2c(Br)nnc2SCC(=O)Nc2ccc(C(=O)O)cc2Br)c2ccccc12	-	-	<0.05 µM
CCN1c2ncc(CCOc3ccc(-c4cc(C)cnc4N)cc3C)cc2C(=O)N(C)c2cccnc21	IIIB	-	<0.05 µM
CCN1c2ncc(CCOc3cccc4c3ccc[n+]4[O-])cc2C(=O)N(C)c2ccc(Cl)nc21	RT -K103N	RT-K103N	0.036 µM
Cc1ccc(-n2c(SCC(=O)Nc3ccc(S(=O)(=O)NC(C(=O)O)C(C)C)cc3Cl)nnc2C(F)F)c2c1CCCC2	-	-	<0.05 µM
CCN1c2ncc(CCOc3ccc(-n4ccnc4)cc3C)cc2C(=O)N(C)c2cccnc21	IIIB	RT-K103N Y181C	<0.05 µM
CCNC(=O)c1ccc(NC(=O)CSc2nnc(Br)n2-c2ccc(CC)c3ccccc23)c(Cl)c1	-	RT-Y181C	<0.05 µM
CCc1ccc(-n2c(Br)nnc2SCC(=O)Nc2ccc(C(=O)N[C@@H](CO)C(=O)OC)cc2Cl)c2ccccc12	-	RT-Y188L	<0.05 µM
NS(=O)(=O)c1ccc(NC(=O)CSc2nnc(C(F)F)n2-c2ccc3c4c(cccc24)CC3)c(Cl)c1	-	-	<0.05 µM
CCN1c2ncc(CCOc3ccc(Nc4cccc(CC(=O)O)c4)cc3C)cc2C(=O)N(C)c2cccnc21	IIIB	RT-K103N Y181C	<0.05 µM
CCc1ccc(-n2c(Br)nnc2SCC(=O)Nc2ccc(C(=O)NCC(OC)OC)cc2Cl)c2ccccc12	-	RT-Y181C	<0.05 µM
CCN1c2ncc(CCOc3ccc(C(=O)Nc4cccnc4C)cc3C)cc2C(=O)N(C)c2cccnc21	IIIB	-	<0.05 µM
CCN1c2ncc(CCOc3ccc(C(=O)O)c4c3CCC4)cc2C(=O)N(C)c2ccc(Cl)nc21	-	RT-K103N Y181C	<0.1 µM
Cc1ccc2c(C)cc(C)c(-n3c(SCC(=O)Nc4ccc(S(N)(=O)=O)cc4C)nnc3C(F)F)c2n1	-	-	<0.05 µM
CCN1c2ncc(CCOc3ccc(N(Cc4ccc(C(=O)O)cc4)C(C)=O)cc3C)cc2C(=O)N(C)c2cccnc21	IIIB	-	0.05–0.1 µM

The last 4 rows once more:

| SMILES | strain or isolate | mutations | result |
|---|---|---|---|
| CCN1c2ncc(CCOc3ccc(C(=O)Nc4cccnc4C)cc3C)cc2C(=O)N(C)c2cccnc21 | IIIB | - | <0.05 µM |
| CCN1c2ncc(CCOc3ccc(C(=O)O)c4c3CCC4)cc2C(=O)N(C)c2ccc(Cl)nc21 | - | RT-K103N Y181C | <0.1 µM |
| Cc1ccc2c(C)cc(C)c(-n3c(SCC(=O)Nc4ccc(S(N)(=O)=O)cc4C)nnc3C(F)F)c2n1 | - | - | <0.05 µM |
| CCN1c2ncc(CCOc3ccc(N(Cc4ccc(C(=O)O)cc4)C(C)=O)cc3C)cc2C(=O)N(C)c2cccnc21 | IIIB | - | 0.05–0.1 µM |